Test results from paper PMC8694051 (Proceedings of the National Academy of Sciences of the …, 2021).

Key:
[1] = system: VSV-SARS-CoV-2 chimeric virus; experiment: VSV-SARS-CoV-2 chimeric virus entry into Calu-3 cells, GFP; settings: for IC50: read-out: IC50 in the VSV-SARS-CoV-2 cell entry assay, dashed lines of Fig. 8

Row | Compound | EC50 (VSV-MERS) [nM] | EC50 [1] [nM] | IC50 [1] [nM]
1 | CC(=O)N[C@@H](CCC(N)=O)C(=O)N[C@@H](Cc1ccccc1)C(=O)N[C@@H](CCCNC(=N)N)C(=O)c1nc2ccccc2s1 [Compound 6, Ac-QFR-kbt] | 0.55 | 0.53 | –
2 | CC(=O)NC(CO)C(=O)NC(CCCCN)C(=O)NC(CC(C)C)C(=O)NC(CCCNC(=N)N)C(=O)c1nc2ccccc2s1 (stereo not drawn) [Compound 3, Ac-SKLR-kbt] | – | 4270 | –
3 | CCC(C)[C@H](NC(C)=O)C(=O)N[C@@H](CCC(N)=O)C(=O)N[C@@H](Cc1ccccc1)C(=O)N[C@@H](CCCNC(=N)N)C(=O)c1nc2ccccc2s1 (stereo partly drawn) | 2.3 | 3.6 | –
4 | CC(=O)N[C@@H](CO)C(=O)N[C@@H](CCCCN)C(=O)N[C@@H](CC(C)C)C(=O)N[C@@H](CCCNC(=N)N)C(=O)c1nc2ccc(C(=O)N[C@H](C(N)=O)C(C)C)cc2s1 | – | 459 | –
5 | CC(=O)NCC(=O)N[C@@H](CCC(N)=O)C(=O)N[C@@H](Cc1ccccc1)C(=O)N[C@@H](CCCNC(=N)N)C(=O)c1nc2ccccc2s1 | 0.87 | 0.43 | 0.43
6 | CC(=O)N1CCC[C@H]1C(=O)N[C@@H](CCC(N)=O)C(=O)N[C@@H](Cc1ccccc1)C(=O)N[C@@H](CCCNC(=N)N)C(=O)c1nc2ccccc2s1 | 2.9 | 0.86 | –
7 | CC(=O)N[C@H]1CC(=O)NCCCC[C@@H](C(=O)N[C@@H](CCCNC(=N)N)C(=O)c2nc3ccccc3s2)NC(=O)[C@H](CC(C)C)NC1=O | – | – | 197
